Some of the results follow. Records with an inconclusive call do not appear. Some structures show a salt or complex split into parts, the way the source records it. Activity calls are given as the source filed them. Cut-off read from the data, not from the text of the source: inconclusive = inhibition above about 70% without an active follow-up result; inactive = below that.
test: M. tuberculosis growth inhibition, HTS (AID 449762);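 note: bacterial growth assessed after seven days of incubation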; settings: M. tuberculosis H37Rv growth inhibition, 7H9 media; at 25 µM; active compounds read high

Compound	inhibition
Cc1ccc(C)c(NP(C)(=O)Oc2ccccc2)c1 (configuration not stated)	inactive: 3.01%
O=C(O)c1cccc(Nc2c([N+](=O)[O-])cc([N+](=O)[O-])cc2[N+](=O)[O-])c1	inactive: 10.5%
CC1=NCCc2c1[nH]c1ccccc21.O=[N+]([O-])c1cc([N+](=O)[O-])c(O)c([N+](=O)[O-])c1	inactive: 3.79%
CCOC(=O)C(CC)C1=NC(C)(C)Cc2ccccc21.O=[N+]([O-])c1cc([N+](=O)[O-])c(O)c([N+](=O)[O-])c1 (configuration not stated)	inactive: 4.93%
O=[N+]([O-])c1cc([N+](=O)[O-])c(Nc2nnnn2CCO)c([N+](=O)[O-])c1	inactive: -1.18%
CC1=C2N=C(C=C3N=C(C(C)=C4[N-][C@@](C)([C@@H]5N=C1[C@](C)(CCC(=O)NC[C@@H](C)OP(=O)([O-])O[C@H]1[C@@H](O)[C@@H](n6cnc7cc(C)c(C)cc76)O[C@@H]1CO)[C@H]5CC(N)=O)[C@@](C)(CC(N)=O)[C@@H]4CCC(N)=O)[C@@](C)(CC(N)=O)[C@@H]3CCC(N)=O)C(C)(C)[C@@H]2CCC(N)=O.[C-]#N.[Co+3]	inactive: -0.51%
COc1ccccc1OP(C)(=O)Nc1c(C)cccc1C (configuration not stated)	inactive: -8.36%
CN1CCCCC1COC(=O)C1(O)c2ccccc2CCc2ccccc21 (configuration not stated)	inactive: 2.22%
CP(=O)(Nc1ccc(SC(F)(F)F)cc1)Oc1ccccc1 (configuration not stated)	inactive: 15.3%
CCCOc1ccc(NP(C)(=O)Oc2ccc(Cl)cc2)cc1 (configuration not stated)	inactive: 62.7%
O=[N+]([O-])c1cc([N+](=O)[O-])c(-n2nnc3ccccc32)c([N+](=O)[O-])c1	inactive: 1.44%
Cc1nc2ccc3ccccc3c2s1.O=[N+]([O-])c1cc([N+](=O)[O-])c(O)c([N+](=O)[O-])c1	inactive: 2.1%
CP(=O)(Nc1ccc(SC(F)(F)F)cc1)Oc1ccc(F)cc1 (configuration not stated)	inactive: 61.5%
CCOP(C)(=S)SCC(=O)NC(C)(CC)C(=O)O (configuration not stated)	inactive: -12.4%
CP(=O)(Nc1ccc2c(c1)OCCO2)Oc1ccccc1 (configuration not stated)	inactive: 5.97%
Cc1ccccc1NP(C)(=O)Nc1ccccc1C	inactive: 8.11%
COc1ccc(OP(C)(=O)Nc2cccc(Br)c2)cc1 (configuration not stated)	inactive: 4.04%
COc1ccc(NP(C)(=O)Oc2ccccc2OC)cc1 (configuration not stated)	inactive: -4.6%
CN(C)CCOC(=O)C(O)(c1ccccc1)C1CCCCC1 (configuration not stated)	inactive: -3.21%

Compound	inhibition
O=[N+]([O-])c1cc([N+](=O)[O-])c(NCC2CCS(=O)(=O)C2)c([N+](=O)[O-])c1 (configuration not stated)	inactive: 16.3%
O=[N+]([O-])c1ccc(OP2(=O)COCCO2)cc1 (configuration not stated)	inactive: 1.72%
COc1ccc(OP(C)(=O)Nc2ccc(SC(F)(F)F)cc2)cc1 (configuration not stated)	inactive: 7.83%
CCOC(=O)c1ccc(NP(C)(=O)Oc2ccc(F)cc2)cc1 (configuration not stated)	inactive: 4.14%
CCN(CC)CCCOC(=O)C(O)(c1ccccc1)C1CCCCC1 (configuration not stated)	inactive: 0.35%
O=[N+]([O-])c1cc([N+](=O)[O-])c(OC2CCCCC2O)c([N+](=O)[O-])c1 (configuration not stated)	inactive: 0.74%
CP(=O)(Nc1ccccc1)Oc1ccc(F)cc1 (configuration not stated)	inactive: 0.28%
CC(C)c1ccc(OP(C)(=O)Nc2ccc(SC(F)(F)F)cc2)cc1 (configuration not stated)	inactive: 17.5%
CP(=O)(Nc1ccccc1F)Oc1ccccc1 (configuration not stated)	inactive: -7.38%
O=C(OCCN1CCN(CCOCc2ccccc2)CC1)C(O)(c1ccccc1)c1ccccc1	inactive: -1.7%
O=C(OC1CN2CCC1CC2)c1ccc([N+](=O)[O-])cc1 (configuration not stated)	inactive: -1.84%
COc1ccc2c(c1O)-c1c(O)c(OC)cc3c1[C@H](C2)[N+](C)(C)CC3.O=[N+]([O-])c1cc([N+](=O)[O-])c([O-])c([N+](=O)[O-])c1[O-]	inactive: 14.9%
COc1ccccc1OP(C)(=O)Nc1ccc(Br)cc1 (configuration not stated)	inactive: 13.8%
CN(C)CCOC(=O)C(O)(c1ccccc1)C1CCCC1 (configuration not stated)	inactive: -5.13%
COc1ccc(OP(C)(=O)Nc2ccccn2)cc1 (configuration not stated)	inactive: 5.71%
Cc1c(NP(C)(=O)Oc2ccc(C(C)C)cc2)c(=O)n(-c2ccccc2)n1C (configuration not stated)	inactive: 5.22%
CCc1ccc(OP(C)(=O)O)cc1	inactive: -0.22%
COc1ccccc1OP(C)(=O)Nc1ccc(C)cc1C (configuration not stated)	inactive: 7.15%
CP(=O)(Nc1ccccn1)Oc1ccccc1 (configuration not stated)	inactive: -5.5%

Compound	inhibition
Cc1cc(C)cc(OP(C)(=O)Nc2cccc(C(F)(F)F)c2)c1 (configuration not stated)	inactive: -1%
COc1ccc(OP(C)(=O)Nc2ccccc2Br)cc1 (configuration not stated)	inactive: 3.48%
COc1ccccc1OP(C)(=O)Nc1ccc(C)c(C)c1 (configuration not stated)	inactive: -4.56%
Cc1nc2ccc3ccccc3c2o1.O=[N+]([O-])c1cc([N+](=O)[O-])c(O)c([N+](=O)[O-])c1	inactive: -4.28%
CP(=O)(OCCOc1ccccc1)OCCOc1ccccc1	inactive: 0.5%
CP(=O)(Nc1ccc(Cl)cc1Cl)Oc1ccccc1 (configuration not stated)	inactive: 6.62%
Nc1ccc2c(ccc3cccnc32)n1.O=[N+]([O-])c1cc([N+](=O)[O-])c(O)c([N+](=O)[O-])c1	inactive: 6.56%
CP(=O)(OC12CC3CC(CC(C3)C1)C2)OC12CC3CC(CC(C3)C1)C2	inactive: -4.86%
CCOC(=O)c1ccc(NP(C)(=O)Oc2ccc(Cl)cc2)cc1 (configuration not stated)	inactive: 5%
COc1ccc(OP(C)(=O)Nc2ccc(Br)cc2)cc1 (configuration not stated)	inactive: 11.1%
CCN(CC)CC(O)COC(=O)C(O)(c1ccccc1)C1CCCCC1 (configuration not stated)	inactive: -5.88%
CCc1ccc(OP(C)(=O)Nc2cccnc2)cc1 (configuration not stated)	inactive: -3.17%
CP(=O)(Oc1ccccc1)N1CCOC1=O (configuration not stated)	inactive: 2.66%
O=C(OCCCN1CCCC1)C(O)(c1ccccc1)C1CCCCC1 (configuration not stated)	inactive: -4.87%
COc1ccccc1OP(C)(=O)Nc1c(C)n(C)n(-c2ccccc2)c1=O (configuration not stated)	inactive: -8.09%
CP(=O)(Nc1ccc(Cl)cc1)Oc1ccc(F)cc1 (configuration not stated)	inactive: 2.94%
CC(C)(C)c1ccc(OP(C)(=O)O)cc1	inactive: -11.7%
COc1ccccc1OP(C)(=O)Nc1ccccc1Br (configuration not stated)	inactive: -1.22%
CN(C)C(=O)c1c([N+](=O)[O-])cc([N+](=O)[O-])cc1[N+](=O)[O-]	inactive: 0.08%
